Experimental data from patent publication US8815829B2, “3′-azido purine nucleotide prodrugs for treatment of viral infections” (priority 2008, dated 2014).

System: MT-2 cells
Assay: Intracellular nucleotides formed in MT-2 cells
Assay type: in vitro ADME
Settings: 48 hr treatment; cells not given

In the case of `[N-]=[N+]=NC1C[C@H](n2cnc3c(O)nc(N)nc32)O[C@@H]1CO` (some centres unmarked) [Compound 56, 3′-Azido-2′,3′-dideoxyguanosine], the “dNTP levels (all but dGTP) after treatment” value is reported as “doubled”.
`[N-]=[N+]=N[C@H]1C[C@H](n2cnc3c(Cl)nc(N)nc32)O[C@@H]1CO` [Compound 68, ((2S,3S,5R)-5-(2-amino-6-chloro-9H-purin-9-yl)-3-azidotetrahydrofuran-2-yl)methanol] was tested, and the “dNTP levels (all but dGTP) after treatment” value was “doubled”.
